Source: patent publication US8652533B2 (priority 2004, dated 2014)
Read-outs that look alike come from different tables or passages of the source.

Test system: SARS (Toronto-2 Strain)
Assay type: cell-based, SARS coronavirus (SARSCoV)

## IFN-beta: Interferon-beta control
50 International Units (IU)
  cytoprotective effect (in words): substantially no cytoprotective effect
Concentration of 50 IU as printed (second mention)
  cytoprotective effect (in words): at least some cytoprotective effect
